For some assays here: Tags and fusion partners may be left off the protein sequences shown. For some assays here: Construct, isoform or probe ends are uncertain for at least one entry.

Chains of the proteins cited; added tags and fusions are not shown. Lines headed by an entry give the natural chain unless they say otherwise; changes in a name come on top.
UniProt P39897: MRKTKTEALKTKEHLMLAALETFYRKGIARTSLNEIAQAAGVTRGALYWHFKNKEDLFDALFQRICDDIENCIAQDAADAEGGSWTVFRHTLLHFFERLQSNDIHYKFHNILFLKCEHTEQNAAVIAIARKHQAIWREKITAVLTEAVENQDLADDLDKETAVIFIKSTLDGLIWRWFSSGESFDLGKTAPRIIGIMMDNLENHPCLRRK

The target of data set [1] is MtrR-MBP (Neisseria gonorrhoeae) (UniProt P39897). Kind of data set: EMSA. To be noted: 2 ug MtrR-MBP, complete shift; 30 ul reaction buffer (composition not stated), room temperature; 6% native PAGE at 4 C; 2 ug MtrR-MBP or 1 ug GdhR-His; recombinant protein; protein details: MBP fusion; label: 32P; probe letters rebuilt from the primers and the genome. Background: Mobility shift assays separate free from complexed probe on a gel.

The test system of a further data set is T1, GdhR-His.
T1 sequence (looked up): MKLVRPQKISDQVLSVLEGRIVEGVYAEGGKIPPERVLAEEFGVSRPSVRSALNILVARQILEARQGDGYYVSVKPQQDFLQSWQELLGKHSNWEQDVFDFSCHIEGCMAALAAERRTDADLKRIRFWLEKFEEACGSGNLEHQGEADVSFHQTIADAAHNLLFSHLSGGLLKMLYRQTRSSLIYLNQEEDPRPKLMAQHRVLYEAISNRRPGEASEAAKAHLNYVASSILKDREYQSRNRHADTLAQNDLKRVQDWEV
Kind of data set: EMSA with competition. To be noted: 1 ug GdhR-His, 50x and 100x unlabeled PgdhA; 30 ul reaction buffer (composition not stated), room temperature; 6% native PAGE at 4 C; 2 ug MtrR-MBP or 1 ug GdhR-His; recombinant protein; residues 1-259; protein details: His (pET15b, NdeI/BamHI); label: 32P; probe letters rebuilt from the primers and the genome.

“GTTTCATCACTCCTCCTTTATAAAGATTCCCTGCAGAACCCTTCCGAAATACATCAAACATCAAATTGGACTGGCCAATCAGGGCGGATTCTAATGACACGCCGTTCCCGCCGTCAACGGCACTTACCTCGCACCGCCCCCGAAACACAGGAAAAAACTACACCAAACTACAATTTTTGTTCATGCAAATATTTGTTTTAACGGGATTTAAATGAAAGCTCCGATTCAAATCTGCCGAACCGCCCAAAAATATATTGACCTGAATATTAAAGTTTCGTAAAGTAATGCAACGTTGCTTTAATTGGTTTGACCACTATTGCCGACGATTAGAAAAATATTTTCGGAGATGTTCAATTATGGAAACTTGGGTTCAAAACTACACGGCAATCGGCG (double strand) [R3/R2 (gdhR promoter)]”: in data set [1], the binding result is reported as “binds”.

Turning to “GTTGTTGGCAATTTCAGCCCTTTTTCACAGCAAAAGCAGGCGTGAAAACAAAATTATCTTGATTGGAATCAAAAAATCTAGTTTAACTACTTAGAATAAAATTCCAATAATATTTTTTATTTGAGAAATTAATTTATGATTATTGGTTGATTATCGGCAATAAACATCATATATCGAAAATATGGGAAAAATAATGTCAACAATTTGTGCAAAATTAGGCTTGGCATCAGAAAAAAATAGGTTTATATTGCCAACTACAAATTTGTTTTCCCATTAGTACAATATCAACCAAAAGGAGTATCCGAATGACG (double strand) [PgdhA]”, the binding result in the data set on GdhR-His is reported as “binds”.

For the origin of these results see publication PMC5388806.
